This is an account of results in patent US12576103B2 (priority 2020, dated 2026).

For this experiment, the system named is SARS-COV-2. It is filed as cell-based. The following applies: heparin concentrations at or above 1 mg/mL; FIG. 8 dose response up to 2 mg/mL.

On to heparin, for which the cytopathic effect worked out at 100%.
